# Primary screen of a compound library

Source: ChEMBL document CHEMBL3988442, “University of Dundee, Small-Polar-MMV Screening Library” (2021).

Mtb glucose medium: 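Whole-cell growth test on Mycobacterium tuberculosis, read after 3 days in glucose-containing 7H9 medium; the read-out is not stated. Concentration: 50 µM. Higher reads as more growth inhibition (inferred: compounds with an IC50 in retests scored well above the rest). About 69,000 compounds were tested under these conditions; 1.1% (about 760) showed 50% or more at least once.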
Mtb cholesterol medium: 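Whole-cell growth test on Mycobacterium tuberculosis, read after 4 days in a medium based on cholesterol and the lipid DPPC; the read-out is not stated. Compounds at 50 µM. Direction is inferred from retests: higher values go with more growth inhibition. Of about 69,000 compounds tested this way, about 370 (0.54%) reached 50% or more in at least one test.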

The filed quantity is “Percent Effect” (%). The record does not define 0% and 100%; most values in the screen are far below 50% and negative numbers occur (in some assays of this library far below -100). This is part of a subset picked to be rich in strong results. Two or more numbers in one place are separate tests of the same structure; such repeats can differ widely. A dash means the value is not listed here; it may have been measured.

| Compound | Mtb glucose medium | Mtb cholesterol medium |
|---|---|---|
| `O=C(NC1CC1)c1ccnc(N2CCOC(c3ccc(Cl)cc3)C2)c1` (stereo not given) | 20.19 | - |
| `COc1cccc(C(C)Nc2ncnc3c2NC(=O)CN3)c1` (stereo not given) | 95.56 | - |
| `[H][C@]12CC[C@]([H])(CN(Cc3ccccn3)C1)N(C(=O)c1cc(C(C)C)on1)C2` | 16.9 | -10.45 |
| `Cc1cc2n(n1)CC(CNC1CCN(C(=O)C3CC3)CC1)CN2` (stereo not given) | 20.01 and -3.132 | - |
| `CCCn1ncc2c(C(=O)Nc3cnn(CC)c3C)cc(C3CC3)nc21` | 52.89 | - |
| `O=C(NCC1CC1)c1cc(Cl)c2c(c1)OCCCO2` | 15.44 and 18.6 | - |
| `O=C(c1[nH]nc(C2CC2)c1Cl)N1CCCC1` | - | 75.84 |
| `CC(=O)N1CCCC1c1nnn2cc(-c3ccncc3)ccc12.O=C(O)C(F)(F)F` (stereo not given) | - | 77.15 and -7.512 |
| `COc1ccc(CNC(Cc2ccsc2)c2ccc(C)cn2)cc1OC.Cl` (stereo not given) | 27.04 | - |
| `Cc1nc(N2Cc3cnn(Cc4ccc(F)cc4)c3C2)no1` | - | 7.412 and -23.55 |
| `CCOCC(=O)N1CCC(CSCc2ccco2)CC1` | 35.93 | - |
| `CNC(=O)CCS(=O)(=O)Cc1cc(Cl)c2c(c1)OCCO2` | -13.27 | 3.991 |
| `CCc1nc(CN(C)Cc2ncc(-c3cccs3)o2)cs1` | 29.08 and 54.63 | - |
| `COc1ccccc1OCCNC(=O)NCC(C)C` | -16.65 and 0.8066 | - |
| `O=C(NCc1ccc2c(c1)OCO2)N1CCCC2(C1)OCCO2` | 2.404 and -19.46 | 0.7539 |
| `c1cnn(CC2CN(c3ncnc4c3CCC4)CCO2)c1` (stereo not given) | 50.79 and 3.236 | - |
| `N#Cc1ccc(N2CCC(OCCc3ccccc3)CC2)nc1` | 52.02 | - |
| `Cc1ccc(-c2noc(CN3CCOC(CN(C)C)C3)n2)cc1F` (stereo not given) | 2.258 | 2.662 |
| `COc1cc(OC)cc(-c2noc(CN)n2)c1` | -51.02 | -54.01 |
| `O=C(NC[C@H]1CC[C@H](c2ccnc3ncnn32)CC1)C1CC1` | 68.63 | - |
| `CN(Cc1ccco1)C(=O)C1CCCc2ccccc21` (stereo not given) | 10.33 | -1.552 |
| `CC(Cn1cc(Br)cn1)C(=O)Nc1ccncc1` (stereo not given) | 55.16 | - |
| `CC(C)OCc1ccc(CNc2cncc(-n3cccn3)n2)cc1` | - | 50.64 |
| `Cc1noc(NC(=O)c2ccc(Br)s2)n1` | 68.23 | - |
| `CC(C#N)CNS(=O)(=O)c1ccc(F)c(Br)c1` (stereo not given) | -7.497 | - |
| `O=C(Nc1ccccc1OC1CCOC1)c1ccon1` (stereo not given) | -15.37 | - |
| `CC(NCc1ccc(OCC(N)=O)cc1)c1ccc(Cl)cc1Cl.Cl` (stereo not given) | 61.98 | 71.18 |
| `COCC(C)(CCO)NC(=O)Nc1cccc(Br)c1C` (stereo not given) | -39.19 | - |
| `CCc1ccc(CN(CCCn2ccnc2)Cc2ccc(C)s2)o1.O=C(O)CC(O)(CC(=O)O)C(=O)O` | 74.03 | 85.38 |
| `Cc1nn(C)c(C)c1CCC(=O)N1CCc2sccc2C1` | 6.739 | - |
| `Cc1cccc(OCCN2CCN(Cc3noc(C)n3)CC2)c1` | 19.14 | -2.723 |
| `Cc1nc(O)cc(CCNC(=O)C2CC(=O)N(CC(C)C)C2)n1` (stereo not given) | - | 91.99 |
| `CCc1nc(CNc2ccc(F)c(F)c2)no1` | 5.382 | - |
| `CN(Cc1ccccc1F)C(=O)c1cc(Cl)c[nH]1` | 22.62 | 29.92 |
| `CC1(C)Cc2c(cnn2-c2cccc(F)c2)C(NC2CCSCC2)C1` (stereo not given) | 13.23 and 14.72 | - |
| `O=C(c1cc(Cl)c(Br)[nH]1)N1CCN(Cc2ccco2)CC1` | -19.27 | -16.93 |
| `Cc1nc(NCCSc2cnn[nH]2)c2c(C)noc2n1` | - | 87.3 |
| `COc1cc(CN2CCCC2)ccc1Oc1ncccc1C(F)(F)F` | 12.32 and 13.08 | - |
| `COc1ccc(OC)c(NC(=O)c2nc3ccccc3n(C)c2=O)c1` | 25.27 | -4.305 |
| `CC(C)N1CCC2(CCCN(Cc3ccc(F)cc3)C2=O)C1` (stereo not given) | 23.3 | - |
| `CC(NCc1ccc(-c2ccc(F)cc2)o1)c1nnc2n1CCC2` (stereo not given) | -7.944 | - |
| `O=C(c1ccnn1COc1ccc(Cl)cc1)N1CCCC1` | 83.89 and 8.065 | - |
| `COc1cccc(S(=O)(=O)CCN2CCCCC2)c1` | -6.005 | -24.81 |
| `Cc1nc(-c2nnc[nH]2)sc1C(=O)N1CCCC1Cn1cccn1` (stereo not given) | - | 71.76 and -2.795 |
| `COc1ccccc1C(O)CNC(=O)NCc1csc(C)n1` (stereo not given) | -28.44 and 0.4063 | - |
| `CC1(C)CCC(CC(=O)O)c2ccccc21` (stereo not given) | - | -1.827 |
| `O[C@H]1CN(c2nc(-c3ccccc3)no2)C[C@@H]1N1CCOCC1` | 0.01803 | - |
| `CCCc1cncnc1N1CCC(NCc2cc3ccccc3[nH]2)CC1` | 63.05 and 71.71 | 69.19 |
| `Cc1nn(C)c(C)c1C(=O)NCc1cc(N(C)C)nc2ccccc12` | -11.22 | -14.85 |
| `O=C(NCCO)Nc1ccc(Br)c(F)c1` | -8.339 and 0.4025 | - |
| `CC(C)(C)OC(=O)NCC(=O)NCc1ccc(Cl)s1` | 15.6 | - |
| `CC(Cn1cccn1)NCc1csc(-c2ccccc2F)n1` (stereo not given) | 83.02 | - |